The test system of the series is O=C(Cc1cccs1)N[C@@H]1C(=O)N2C(C(=O)O)=C(/C=C/c3ccc([N+](=O)[O-])cc3[N+](=O)[O-])CS[C@H]12. Kind of series: purified protein. To be noted: pH 7.2; 37.0 °C.

“Rv0309 (Mycobacterium tuberculosis H37Rv)”: the Km stood at 740 ± 150 µM. With “Rv1723 (Mycobacterium tuberculosis H37Rv)” the figure was 610 ± 150 µM; with “Rv2257c (Mycobacterium tuberculosis H37Rv)”, 1000 ± 200 µM.

Usually Km stands for the substrate concentration at which the rate is half of its maximum.

These data come from doi:10.1101/2025.02.25.640225v1 (biorxiv, 2025).
